Reference: ChEMBL document CHEMBL2163257 (J Med Chem, 2012)

Amino acid sequences for entries named in this document (tags omitted). A change or cut given only in a name is not applied to a line headed by its entry.
UniProt Q9H3N8: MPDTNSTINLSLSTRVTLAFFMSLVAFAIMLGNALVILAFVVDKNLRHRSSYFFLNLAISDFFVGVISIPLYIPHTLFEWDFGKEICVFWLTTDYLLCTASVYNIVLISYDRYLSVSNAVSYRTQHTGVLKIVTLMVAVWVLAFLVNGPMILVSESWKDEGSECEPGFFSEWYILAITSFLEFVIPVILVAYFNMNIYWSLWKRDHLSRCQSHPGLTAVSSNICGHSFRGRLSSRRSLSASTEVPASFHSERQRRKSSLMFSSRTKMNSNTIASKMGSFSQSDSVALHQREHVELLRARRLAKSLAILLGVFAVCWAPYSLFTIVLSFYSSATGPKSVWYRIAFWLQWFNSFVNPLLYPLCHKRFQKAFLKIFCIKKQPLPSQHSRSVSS

Target: Histamine H4 receptor (Homo sapiens, UniProt Q9H3N8)
Settings: Sf9

pKb	SMILES
< 6	Cc1nc(N)sc1CCCN/C(N)=N/C(=O)CCCCCCC(=O)/N=C(\N)NCCCc1sc(N)nc1C
< 6	N/C(=N\C(=O)CCCCCCC(=O)/N=C(\N)NCCCc1cnc(N)s1)NCCCc1cnc(N)s1
< 6	N/C(=N\C(=O)CCCCCCCCC(=O)/N=C(\N)NCCCc1cnc(N)s1)NCCCc1cnc(N)s1
< 5	Cc1nc(N)sc1CCCN/C(N)=N/C(=O)CCCCCCCCC(=O)/N=C(\N)NCCCc1cnc(N)s1
< 6	Cc1nc(N)sc1CCCN/C(N)=N/C(=O)CCCCCCCCC(=O)/N=C(\N)NCCCc1sc(N)nc1C
< 6	Cc1nc(N)sc1CCCN/C(N)=N/C(=O)CCCCC(=O)/N=C(\N)NCCCc1sc(N)nc1C
< 6	Cc1nc(N)sc1CCCN/C(N)=N/C(=O)CCCCCCCCCCCCCCC(=O)/N=C(\N)NCCCc1sc(N)nc1C
